# PubChem BioAssay AID624099 | ICCB-Longwood – 2012
# Screen: 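Host factors E2 relies on to silence an HPV18 LCR reporter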 (primary screen)
# Cells: human C33A cervical carcinoma cells (HPV-negative) stably expressing BPV1 E2 and an HPV18 LCR luciferase reporter
# Knock-down reagent: siRNA pool against human genes, 40 nM
# Timing: 72 h
# Read-out: 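Per-well luciferase luminescence, z-scored on each plate against the plate mean and SD with control wells left out, then averaged across three replicate plates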
# Direction: mean z-score and z-score: higher = stronger reporter signal, weaker E2 silencing
# Active means: 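Hit if mean z-score reaches 2 and two or more of three replicate z-scores also reach 2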
# This is a random part of about 21,000 reagents. Of all reagents, 497 (2.4%) got an active call. 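Higher z means weaker E2 silencing; only reporter increases were scored, and knock-downs that hurt cell survival may mask genuine repressor factors.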
target gene,mean z-score,"z-score, replicate A","z-score, replicate B","z-score, replicate C",Call
TLE1,0.08,-0.09,0.21,0.12,inactive
LOC390234 (retired record),1.57,1.44,1.61,1.67,inactive
LETMD1,0.37,0.4,0.15,0.57,inactive
CD248,-1.08,-1.25,-0.9,-1.09,inactive
LOC388204 (retired record),0.57,0.43,0.29,0.98,inactive
MSH3,0.98,0.54,1.14,1.27,inactive
CCNP,-1.53,-1.41,-1.68,-1.51,inactive

Records listed so far whose gene name starts with L or l:
target gene,mean z-score,"z-score, replicate A","z-score, replicate B","z-score, replicate C",Call
LOC390234 (retired record),1.57,1.44,1.61,1.67,inactive
LETMD1,0.37,0.4,0.15,0.57,inactive
LOC388204 (retired record),0.57,0.43,0.29,0.98,inactive

Additional reagents:
target gene,mean z-score,"z-score, replicate A","z-score, replicate B","z-score, replicate C",Call
ZNF701,-1.23,-1.71,-0.93,-1.06,inactive
PDCD11,-0.62,-0.55,-0.8,-0.52,inactive
HYAL4,0.13,0.11,0.21,0.07,inactive
LOC400865 (retired record),0.86,0.81,0.58,1.19,inactive
DAG1,0.34,0.19,0.52,0.33,inactive
TSPEAR,0.44,0.39,0.56,0.37,inactive
ZNF750,1.84,2.3,2.22,0.99,inactive
KIF11,-0.99,-1.2,-1.02,-0.75,inactive
SLC35A2,0.01,0.02,-0.03,0.05,inactive
PEDS1,0.54,0.23,0.45,0.95,inactive
CCL3L1,-0.94,-1.04,-0.96,-0.82,inactive
PPP2R5A,0.01,-0.03,0.2,-0.14,inactive
RAB2B,1.49,1.43,1.53,1.51,inactive
GH1,1.29,1.23,1.45,1.19,inactive
SRPK3,1.32,1.58,1.24,1.14,inactive
KCNJ1,-0.64,-0.47,-0.77,-0.67,inactive
